According to paper PMC12703749, “H2O2–Responsive Anticancer Prodrug: Synthesis, Precision Deuteration in Search of In Vivo Metabolites, and Activation Pathway” (Journal of Medicinal Chemistry, 2025):
≈ marks a conversion by molar mass, not a printed value.

Legend:
[1] = system: MDA-MB-468 xenograft tumors; assay: In vivo efficacy in MDA-MB-468 xenograft model; conditions: 5 mg/kg IP
MCF-10A cells = assay: Cell viability assay (CellTiter-Glo), MCF-10A; conditions: MCF-10A versus MDA-MB-468
[2] = system: synthetic 49-mer DNA duplex (11); assay: DNA interstrand cross-link (ICL) formation, denaturing PAGE
Aqueous solubility = conditions: pH 7.4, 80% PBS and 20% MeCN, n = 3
MDA-MB-468 cells = assay: Cell viability assay (CellTiter-Glo), MDA-MB-468; conditions: MDA-MB-468 (cancer), 48 h, 37 °C, n = 3

CCc1cc(N(CCCl)CCCl)ccc1B(O)O
tumor growth inhibition rate (IR) ([1]; 8 weeks, IR = [1 – (mean treated/mean control tumor volume)] × 100): 89%
mean final tumor volume ([1]; 5 days per week, week 8, n = 3): 264 ± 197 mm^3
tumor weight ([1]; end of treatment, n = 3): 201 ± 134 mg
final tumor volume relative to the control group ([1]; week 8): approximately 11%
fold higher IC50 in MCF-10A than in MDA-MB-468 (MCF-10A cells): 3 fold
incubation time to maximal ICL yields ([2]; 0.5 mM 10a, 1 mM H2O2, rt, n = 2): approximately 15 h
EC50 ([2]; read-out: EC50 of DNA ICL formation, with H2O2 (H2O2:10a = 2:1), rt, average of two experiments): 3280 µM
solubility (Aqueous solubility): 74 µM (≈ 21.5 µg/mL)
IC50 (MDA-MB-468 cells): 5.1 µM
